Measured values from several laboratories, pooled; numbers as filed in NIAID ChemDB.

Shared fields: whole-cell or culture tests; agent: Candida albicans

Lines come from different laboratories, so protocols vary. A number after MIC or MFC names an inhibition level or a share of isolates. An empty or dashed field is not shown.

Cc1c(N2CCCC(CN)C2)c(F)cn2c(=O)c(C(=O)O)cc(C3CC3)c12 ; strain: CCH442 ; endpoint: MIC ; value: >100 µg/mL
CCNC1CCN(c2c(F)cn3c(=O)c(C(=O)O)cc(C4CC4)c3c2C)C1.Cl ; strain: CCH442 ; endpoint: MIC ; value: >100 µg/mL
COc1cccc(C[N+]2=C(C)c3cc4c(cc3CC2)OCO4)c1OC.[Br-] ; mutations: Fluconazole-resistant ; strain: Clinical isolate ; endpoint: MIC80 ; method: broth dilution ; value: >64 µg/mL
CN1CCC2=C(CCCC2CCc2ccc(Cl)cc2)C1 ; strain: 2005E ; endpoint: MIC ; value: 8 µg/mL
C[C@H](CCC(=O)NCCNCCNC(=O)CC[C@@H](C)[C@H]1CCC2C3C(C[C@H](C)[C@@]21O)[C@@]1(C)CC[C@@H](O)CC1C[C@H]3O)[C@H]1CCC2C3C(C[C@H](C)[C@@]21O)[C@@]1(C)CC[C@@H](O)CC1C[C@H]3O ; strain: Isolate 1 ; endpoint: MIC ; value: 0.01 µM
CCC[C@H](N)C1CCN(c2c(F)cn3c(=O)c(C(=O)O)cc(C4CC4)c3c2C)C1 ; strain: CCH442 ; endpoint: MIC ; value: 50 µg/mL
CN1CC[C@H]2[C@@H](CC[C@@H]3c4cc(Cl)ccc4CC[C@H]23)C1 ; strain: C316 ; endpoint: MIC ; value: 100 µg/mL
Cc1c(N2CCC(N(C)C)C2)c(F)cn2c(=O)c(C(=O)O)cc(C3CC3)c12 ; strain: CCH442 ; endpoint: MIC ; value: >100 µg/mL
C[C@@H](c1nc(-c2ccc(C#N)cc2)cs1)[C@](O)(Cn1cnnc1)c1ccc(F)cc1F ; strain: Isogenic isolate 3 MDR1 (25X) ; endpoint: MIC ; value: 0.008 µg/mL
O=C(Cc1ccc([N+](=O)[O-])cc1)NCCc1ccc2c(c1)OCO2 ; mutations: Fluconazole-resistant ; strain: Clinical isolate ; endpoint: MIC80 ; method: broth dilution ; value: >64 µg/mL
Cc1c(N2CCN(C)CC2)c(F)cn2c(=O)c(C(=O)O)cc(C3CC3)c12 ; strain: CCH442 ; endpoint: MIC ; value: >100 µg/mL
CC1=C(N2CCC(NCCF)C2)C(F)=CN2C(=O)C(C(=O)O)=CC(C3CC3)C12 ; strain: CCH442 ; endpoint: MIC ; value: 100 µg/mL
Brc1ccc(C[N+]2=C(c3ccco3)c3cc4c(cc3CC2)OCO4)cc1.[Br-] ; mutations: Fluconazole-resistant ; strain: Clinical isolate ; endpoint: MIC80 ; method: broth dilution ; value: >64 µg/mL
OC(Cn1cncn1)(Cn1cncn1)c1ccc(F)cc1F ; strain: YL 366 ; endpoint: MIC ; method: broth dilution ; value: 128 µg/mL
Cc1c(N2CCC(C3(N)CC3)C2)c(F)cn2c(=O)c(C(=O)O)cc(C3CC3)c12.Cl ; strain: CCH442 ; endpoint: MIC ; value: 50 µg/mL
C[C@H]1[C@H](O)[C@@H](C)/C=C/C=C/C=C/C=C/C=C/C=C/C=C/[C@H](O[C@@H]2O[C@H](C)[C@@H](O)[C@H](N)[C@@H]2O)C[C@@H]2O[C@](O)(C[C@@H](O)C[C@@H](O)CC[C@H](O)[C@@H](O)C[C@@H](O)CC(=O)O[C@H]1C)C[C@H](O)[C@H]2C(=O)O ; strain: SKF ; endpoint: MIC ; value: 0.03 µg/mL
Cc1c(N2CC[C@@H]([C@H](N)CO)C2)c(F)cn2c(=O)c(C(=O)O)cc(C3CC3)c12 ; strain: CCH442 ; endpoint: MIC ; value: >100 µg/mL
CC1=C(CCCc2ccccc2)CCN(C)C1 ; strain: C316 ; endpoint: MIC ; value: 31 µg/mL
COc1cc(C[C@H](C)[C@H](C)Cc2ccc(O)c(O)c2)ccc1O ; strain: ATCC 10231 ; endpoint: MIC100 ; method: broth dilution ; value: 62.5 µg/mL
CC1=C(N2CCC(F)(CN)C2)C(F)=CN2C(=O)C(C(=O)O)=CC(C3CC3)C12 ; strain: CCH442 ; endpoint: MIC ; value: >100 µg/mL
Cc1c(N2CCC(CCO)CC2)c(F)cn2c(=O)c(C(=O)O)cc(C3CC3)c12 ; strain: CCH442 ; endpoint: MIC ; value: >100 µg/mL
CC1=C(N2CC[C@H]([C@H](N)C(F)(F)F)C2)C(F)=CN2C(=O)C(C(=O)O)=CC(C3CC3)C12 ; strain: CCH442 ; endpoint: MIC ; value: >100 µg/mL
Fc1ccc(C2=[N+](Cc3ccc(Br)cc3)CCc3cc4c(cc32)OCO4)c(F)c1.[Br-] ; mutations: Fluconazole-resistant ; strain: Clinical isolate ; endpoint: MIC80 ; method: broth dilution ; value: >64 µg/mL
Cc1c(N2CC[C@@H](N(C)C)C2)c(F)cn2c(=O)c(C(=O)O)cc(C3CC3)c12 ; strain: CCH442 ; endpoint: MIC ; value: >100 µg/mL
Cc1c(N2C[C@@H](N)[C@H](C(F)(F)F)C2)c(F)cn2c(=O)c(C(=O)O)cc(C3CC3)c12 ; strain: CCH442 ; endpoint: MIC ; value: >100 µg/mL
Cc1c(N2C[C@@H](N)C[C@@H]2C)c(F)cn2c(=O)c(C(=O)O)cc(C3CC3)c12.Cl ; strain: CCH442 ; endpoint: MIC ; value: >100 µg/mL
CN1CCC2=C(CCCC2CCc2c(Cl)cccc2Cl)C1 ; strain: C316 ; endpoint: MIC ; value: 16 µg/mL
Cc1c(N2CCC(c3ccccn3)C2)c(F)cn2c(=O)c(C(=O)O)cc(C3CC3)c12 ; strain: CCH442 ; endpoint: MIC ; value: 0.2 µg/mL

3 of the rows above, restated:

compound	mutations	strain	endpoint	method	value
CC1=C(N2CCC(NCCF)C2)C(F)=CN2C(=O)C(C(=O)O)=CC(C3CC3)C12		CCH442	MIC		100 µg/mL
CC1=C(N2CCC(F)(CN)C2)C(F)=CN2C(=O)C(C(=O)O)=CC(C3CC3)C12		CCH442	MIC		>100 µg/mL
OC(Cn1cncn1)(Cn1cncn1)c1ccc(F)cc1F		YL 366	MIC	broth dilution	128 µg/mL